Earlier results on 1 substance are cited in patent US10258634B2, “Ciclesonide for the treatment of airway disease in horses” (Boehringer Ingelheim Vetmedica GmbH, priority 2012, dated 2019).

The test system of one data set is horses. The settings on record: aerosol administration, some studies (Robinson et al., 2009); cited from earlier work.
In the next data set the test system is humans. The settings on record: aerosol administration, some studies (Grahnén et al., 1997); cited from earlier work.

For fluticasone proprionate, the measured cortisol levels result in the data set on horses and in the data set with humans was “significant suppression” each time.
